A mixed list of measured activities; the numbers were collected in NIAID ChemDB.

Common to all: tests in culture

ECn is the concentration giving n% inhibition of infection, replication or growth. Rows are shuffled and stem from different studies. Inhibition is in % at the dose shown (toxicity tests: loss of growth or viability). MIC50, MIC90 and the like: level of inhibition, or share of isolates inhibited. Blank or dashed fields: not listed here. a–b is a range or a potency band.

SMILES	species	strain	cells	method	read-out	dose	result
CCc1cn([C@@H]2O[C@H](CO)[C@@H](O)[C@@H]2O)c(=O)[nH]c1=O	Varicella zoster virus	KANNO	HELF	plaque count	inhibition	10 µg/mL	0%
O=[N+]([O-])c1ccc(C=Nc2ccccc2O)cc1	Cryptococcus gattii	LMM 818			MIC99		8 µg/mL
Cc1ccc(C(=O)Nc2ccc(S(=O)(=O)O)c3cc(S(=O)(=O)O)cc(S(=O)(=O)O)c23)cc1NC(=O)c1cccc(NC(=O)Nc2cccc(C(=O)Nc3cc(C(=O)Nc4ccc(S(=O)(=O)O)c5cc(S(=O)(=O)O)cc(S(=O)(=O)O)c45)ccc3C)c2)c1	Herpes simplex virus		Human conjunctiva cells	cytopathic effect	inhibition	50 µg/mL	100%
CCOC(=O)/C=C/[C@H](C[C@@H]1CCNC1=O)NC(=O)[C@@H](CC(=O)[C@@H](NC(=O)c1cc(C)on1)C(C)C)Cc1ccc(F)cc1	Rhinovirus	Isolate 20	OHIO HELA-I	cytopathic effect / visual reading	EC50		<0.01 µg/mL
Nc1ccc(S(=O)(=O)[O-])c2c(S(=O)(=O)[O-])ccc(O)c12	Rhinovirus		Human amnion AV3 cells	cytopathic effect	inhibition	10 µg/mL	0%
CCC(CC)[C@H](NC(C)=O)[C@@H]1[C@H](O)[C@@H](C(=O)O)C[C@H]1N=C(N)N	Influenza A virus	Influenza A/Virginia/2/88R (H3N2)	MDCK	visual reading	EC50		<0.01 µM
Oc1ccccc1N=Cc1ccc(F)cc1	Cryptococcus neoformans	ATCC 62066			MIC99		1.4 µg/mL
N#Cc1cc(C(=O)N2CCn3c(c(C(=O)NCc4ccccc4-c4ncccn4)n(-c4ccc(OC5CC5)cc4)c3=O)C2)ccc1Br	Hepatitis B virus		HepG2.117	PCR	EC50		0.1–0.5 µM
Oc1ccc(O)c(C=Nc2ccccc2O)c1	Cryptococcus gattii	1913 ER			MIC99		8 µg/mL
N#CCOc1ccc(-n2c(C(=O)NCc3ccccc3)c3n(c2=O)CCN(C(=O)c2ccc(Br)c(Cl)c2)C3)cc1	Hepatitis B virus		HepG2.117	PCR	EC50		0.5–5 µM
Nc1nc2c(ncn2COC(CO)CO)c(=O)[nH]1	Human cytomegalovirus	VR5611 (ganciclovir-susceptible)		plaque count	EC90		6 µM
CCOC(=O)c1ccc(OCCC2CCN(c3ccc(C)nn3)CC2)cc1	Rhinovirus	121564 (ICAM-1 receptor group 86)	KB	neutral red	EC50		0.081 µM
CCOC(=O)c1c(C)nc(NCCCCNc2ccnc3cc(Cl)ccc23)nc1-c1ccccc1[N+](=O)[O-]	Cryptococcus neoformans	LMM 820			MIC99		8 µg/mL
O=C(NCc1ccccc1)c1c2n(c(=O)n1-c1ccccc1)CCN(C(=O)c1ccc(Cl)c(Cl)c1)C2	Hepatitis B virus		HepG2.117	PCR / entry	EC50		0.5–5 µM
O=c1[nH]c(=O)n([C@@H]2O[C@H](CO)[C@@H](O)[C@@H]2O)cc1/C=C/Cl	Varicella zoster virus	Kawaguchi	HELF	plaque count	inhibition	0.001 µg/mL	98%
O=C(Nc1ccc2cc(S(=O)(=O)[O-])cc(S(=O)(=O)[O-])c2c1)c1ccccc1	Adenovirus	TYPE 3	Human amnion AV3 cells	cytopathic effect	inhibition	10 µg/mL	0%
Nc1nc(=O)n([C@@H]2O[C@H](CO)[C@@H](O)[C@@H]2F)cc1I	Varicella zoster virus	OKA	HELF	plaque count	inhibition	0.001 µg/mL	0%
Oc1ccccc1N=Cc1ccccc1	Cryptococcus neoformans	VM-MCMMPI			MIC99		5.7 µg/mL
O=S(=O)(O)c1cc(O)c2c(O)c(N=Nc3ccccc3)c(S(=O)(=O)O)cc2c1	Rhinovirus		Human amnion AV3 cells	cytopathic effect	inhibition	50 µg/mL	32%
Oc1ccccc1N=Cc1cccc(O)c1O	Cryptococcus neoformans	96806		broth dilution	MIC		4 µg/mL
C=Cc1cn([C@@H]2O[C@H](CO)[C@@H](O)[C@@H]2O)c(=O)[nH]c1=O	Varicella zoster virus	KANNO	HELF	plaque count	inhibition	1 µg/mL	100%
O=S(=O)([O-])c1cc(S(=O)(=O)[O-])c2cc(NS(=O)(=O)c3ccccc3)ccc2c1	Rhinovirus		Human amnion AV3 cells	cytopathic effect	inhibition	50 µg/mL	0%
CC(C)Oc1ccc(-n2c(C(=O)N[C@H](C)c3ccccc3)c3n(c2=O)CCN(C(=O)c2ccc(Cl)c(Cl)c2)C3)cc1	Hepatitis B virus		HepG2.117	PCR	EC50		0.1–0.5 µM
C=CCc1ccc(OC)c(OC)c1	Candida glabrata	3080		turbidity	MIC90		350 µg/mL
Nc1cc(S(=O)(=O)[O-])cc2cc(S(=O)(=O)[O-])ccc12	Herpes simplex virus		Human amnion AV3 cells	cytopathic effect	inhibition	10 µg/mL	0%